PubChem BioAssay AID504761 – Drosophila RNAi Screening Center, 2011

- Purpose: 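Insect host genes that dengue virus relies on to spread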 (primary screen)
- Cells: D.Mel-2 cells from Drosophila
- Knock-down reagent: long dsRNA against Drosophila genes
- Challenge: infection with dengue virus type 2; dose and infection time not stated
- Measurement: 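Cells stained for dengue envelope protein and imaged; percent of infected cells per well on duplicate plates, ranked by infection, with stained nuclei counted for cell number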
- Reading the numbers: infection score: higher = more virus-infected cells; cell count: higher = more cells in the well
- Active means: 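Very low infection ranking in both replicate wells (chance probability at most 0.065), then a retest showing infection dropped 1.5-fold or more at p below 0.05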
- Calls: active = confirmed: knock-down lowers infection; inactive = not picked or not confirmed
In all, the deposit lists about 22,000 reagents; shown is a random part of those that have a named target and a result. In the full data, 116 (0.52%) are marked active. 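Calls depend on retest data that are not deposited; infection was ranked per plate without normalising between plates; the unit of the infection score is not given.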 The raw values are shown without normalisation. A number with no mark means an inactive call. A plus sign joins genes that one reagent is predicted to hit. The record does not give: the amount of reagent, the time to read-out.

Sb [DRSC16851] — infection score, replicate 1 = 5.66; infection score, replicate 2 = 26.4; cell count, replicate 1 = 6164; cell count, replicate 2 = 5383
Sb [DRSC29250] — infection score, replicate 1 = 14.3; infection score, replicate 2 = 16.2; cell count, replicate 1 = 4214; cell count, replicate 2 = 5981
Kaz1-ORFB + Kaz1-ORFA [DRSC08669] — infection score, replicate 1 = 7.08; infection score, replicate 2 = 18; cell count, replicate 1 = 6089; cell count, replicate 2 = 4622
CG4768 [DRSC19917] — infection score, replicate 1 = 9.68; infection score, replicate 2 = 6.56; cell count, replicate 1 = 6093; cell count, replicate 2 = 6034

Only “infection score, replicate 1”, for 2 of the entries above:
Sb [DRSC29250]	14.3
Kaz1-ORFB + Kaz1-ORFA [DRSC08669]	7.08

The list goes on:
CG7518 [DRSC16253] — infection score, replicate 2 = 12; cell count, replicate 1 = 382; cell count, replicate 2 = 2725
CG7518 [DRSC29146] — infection score, replicate 1 = 28.2; cell count, replicate 1 = 4013; cell count, replicate 2 = 226
Ste:CG33238 + Ste:CG33241 + Ste:CG33236 + 11 more [DRSC19004] — infection score, replicate 1 = 1.48; infection score, replicate 2 = 1.37; cell count, replicate 1 = 5941; cell count, replicate 2 = 5632
Ste:CG33238 + Ste:CG33241 + Ste:CG33236 + 11 more [DRSC21260] — infection score, replicate 1 = 2.62; infection score, replicate 2 = 5.39; cell count, replicate 1 = 6484; cell count, replicate 2 = 5976
CG4210 [DRSC15551] — infection score, replicate 1 = 6.66; infection score, replicate 2 = 11.9; cell count, replicate 1 = 6442; cell count, replicate 2 = 5402
CG4210 [DRSC27388] — infection score, replicate 1 = 17.2; infection score, replicate 2 = 13.6; cell count, replicate 1 = 5947; cell count, replicate 2 = 6214
CG9970 [DRSC08644] — infection score, replicate 1 = 1.35; infection score, replicate 2 = 5.65; cell count, replicate 1 = 6215; cell count, replicate 2 = 5802
pita [DRSC04006] — infection score, replicate 1 = 2.78; infection score, replicate 2 = 0.64; cell count, replicate 1 = 5728; cell count, replicate 2 = 5432
pita [DRSC04435] — infection score, replicate 1 = 1.27; infection score, replicate 2 = 7.82; cell count, replicate 1 = 6319; cell count, replicate 2 = 5880
